System: intestinal porcine epithelial cell line (IPEC-J2)
Experiment: Cell viability of IPEC-J2 after 48 h toxin treatment (sulforhodamine B assay)

CCC(C)C1NC(=O)/C(=C(/C)O)C1=O (stereo not drawn)
Cytotoxic effect on IPEC-J2 (in words) (48 h, SRB assay): slight decrease in viability | Viability after applying higher concentrations (IPEC-J2, 48 h): did not further decrease below 50% | Cell viability (IPEC-J2, 48 h, at 20 µM): 76.2% | Viability despite increased concentrations (IPEC-J2, 48 h, concentrations above 20 µM up to 150 µM): around 50% | Relative IC50 value (IPEC-J2, 48 h, µM value expressed in µg/kg): 4761 µg/kg | IC50 (read-out: Relative IC50 value, IPEC-J2, 48 h incubation, SRB assay, concentration reducing viability to 50% between top and bottom plateau): 20.9 µM

— article PMC6784148 (Toxins, 2019)
